Source: ChEMBL document CHEMBL2157983 (Bioorg Med Chem Lett, 2011)

Tested on: Trypanosoma brucei
Assay: Activity of Trypanosoma brucei NTR assessed as NADH oxidation per mg of protein
In short: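 Substrate activity reported as the initial velocity of NADH oxidation (nmol/min/mg) with either E. coli nfsB or T. brucei nitroreductase (TbNTR). The reaction was followed by the change in absorbance at 340 nm.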

Molecule `O=C(OCc1ccc([N+](=O)[O-])cc1)N(CCCl)CCCl` has an Activity of 1120 nmol/min.
